# Values from PubChem BioAssay AID1259414 (Drosophila RNAi Screening Center, 2018).
# Assay: 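Host factors increasing or decreasing Wolbachia levels in cultured fly cells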 (primary screen)
# Cell system: Drosophila JW18 cells infected with Wolbachia
# Reagent: long dsRNA against Drosophila genes, 0.25 µg dsRNA per well of a 384-well plate
# Duration: 5 days
# Treatment: cells persistently infected with Wolbachia before knock-down; no added drug
# Detection: 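Automated imaging of bacterial rRNA staining divided by host cell count, reported as plate-normalised robust z-score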
# Scale: Wolbachia per cell robust z: higher = more Wolbachia per host cell than the plate typical
# Call rule: 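Active if absolute robust z reaches 1.5 in two or more of three replicates, leaving out multi- or no-target dsRNAs, genes unexpressed in JW18 and A1 wells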
# The deposit covers about 24,000 reagents; shown is an unselected part of those that have a named target and a result. In the full data, about 1,210 (5%) are marked active. 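Inactive calls also include excluded dsRNAs with several or no targets, genes unexpressed in JW18, and well A1, regardless of score.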 Unmarked entries are inactive. Reagents against one gene are numbered here. Names joined by + are all predicted targets of the reagent. No sequences are given here.
gene,reagent,"Wolbachia per cell robust z, rep 1","Wolbachia per cell robust z, rep 2","Wolbachia per cell robust z, rep 3"
trol (terribly reduced optic lobes),1,-1.18,-0.591,0.354
trol (terribly reduced optic lobes),2,-0.524,0.305,0.33
trol (terribly reduced optic lobes),3,0.787,0.785,0.67
trol (terribly reduced optic lobes),4,-0.0661,-1.88,-0.0832
cutlet,1,1.12,0.542,0.409
cutlet,2,1.05,0.476,1.19
slp2 (sloppy paired 2),1,-4.3,-4.95,0.758
slp2 (sloppy paired 2),2,-1.09,-0.0333,-0.976
slp2 (sloppy paired 2),3,-0.397,-2.62,0.0441
CG3081,1,-2.28,-0.288,-0.769
CG17738,1,-0.769,-1.27,0.292
CG17738,2,1.18,-0.0856,0.195
CG17650,1,-0.0167,-0.752,-1.33
CG14817,1,-0.203,-0.0941,0.0766
CG12861,1,0.559,0.275,0.439
CG12861,2,-1.6,-2.28,-0.432
CG12861,3,0.433,-0.893,0.385
RalGPS (Ral GEF with PH domain and SH3 binding motif),1,-0.42,1.2,-1.1
RalGPS (Ral GEF with PH domain and SH3 binding motif),2,0.0712,-0.816,0.569
CR15280 (pseudo),1,-0.0223,0.156,-0.694
CR15280 (pseudo),2,0.616,0.709,0.544
CG2006,1,-0.979,-0.716,0.151
CG13639,1,0.224,-1.77,0.324
alphaTry (alphaTrypsin),1,0.158,0.126,0.482
CG11964,1,-0.0772,-0.166,-2.3
CG11964,2,-0.17,0.917,0.501
CR17438 (pseudo),1,0.489,0.41,0.466
CR17438 (pseudo),2,-0.48,0.146,0.0347
CG32379,1,1.93,0.146,-5.67
Blos1,1,0.725,1.09,-1.09
Cwc25,1,0.978,0.686,-0.312
CG14960,1,-1.1,-0.159,0.117
row (relative of woc),1,0.625,0.732,0.758
row (relative of woc),2,-1.21,0.0764,0.285
inaF-A,1,0.573,-0.219,0.585
U2af50 (U2 small nuclear riboprotein auxiliary factor 50),1,1.96 (active),1.3,5.37
U2af50 (U2 small nuclear riboprotein auxiliary factor 50),2,0.602,0.0798,-0.235
CG31832,1,0.805,0.877,0.785
CG31832,2,-0.0158,0.15,-0.706
CG11583,1,-5.74,1.96,0.741
CG11583,2,-1.28,0.557,0.532
CG12213,1,-0.128,-0.764,0.853
CG12213,2,0.112,-1.75,-0.544
CG12213,3,-0.498,-7.64,-1.05

Copied from the list:
Value of inaF-A under “Wolbachia per cell robust z, rep 3”: 0.585
Value of Blos1 in “Wolbachia per cell robust z, rep 3”: -1.09
CG13639, Wolbachia per cell robust z, rep 2: -1.77
Result for CG11583 #2 under “Wolbachia per cell robust z, rep 3”: 0.532
Entry for slp2 (sloppy paired 2) #3 under “Wolbachia per cell robust z, rep 3”: 0.0441
Result of U2af50 (U2 small nuclear riboprotein auxiliary factor 50) #2 under “Wolbachia per cell robust z, rep 1”: 0.602

Additional records follow:
gene,reagent,"Wolbachia per cell robust z, rep 1","Wolbachia per cell robust z, rep 2","Wolbachia per cell robust z, rep 3"
Ski6,1,-5,-0.0109,-0.791
Tengl1 (Testis EndoG-Like 1),1,-0.306,0.863,1.06
CG11635,1,-0.162,0.63,0.681
CG11635,2,0.146,-2.37,0.56
CG32075,1,1.48,0.0013,-0.419
CG32075,2,0.732,1.04,0.231
S2P (site-2 protease),1,0.191,0.308,0.746
S2P (site-2 protease),2,1.18,0.0323,-1.37
koi (klaroid),1,0.297,0.661,0.484
koi (klaroid),2,0.464,0.121,-2.29
CG32237,1,-0.0761,-0.45,0.615
CG32237,2,-0.494,-0.0252,-0.203
CG32237,3,-0.499,0.787,-0.326
CG10809,1,-3.58,-0.111,-1.3
CG10809,2,-0.778,0.0719,0.485
Cp7Fc (Chorion protein c at 7F),1,0.679,0.0972,-0.694
Cp7Fc (Chorion protein c at 7F),2,0.96,-0.412,1.04
Rrp47 (Ribosomal RNA processing 47),1,0.982,0.659,0.474
Rrp47 (Ribosomal RNA processing 47),2,-11.2 (active),-7.14,-0.265
CG14511,1,0.387,0.428,1.28
CG14511,2,-0.488,-1.23,0.266
lok (loki),1,-1.52,-0.29,-0.505
lok (loki),2,-0.757,-1.32,-2.37
CG9171,1,-0.0326,-0.0253,0.33
CG9171,2,0.00486,0.0772,-1.38
CG9171,3,0.519,-0.92,0.801
Xport-A + Xport-B,1,1.06,-0.896,-0.855
"morgue (modifier of rpr and grim, ubiquitously expressed)",1,-1.19,-6.53,-0.848
CG15450,1,0.0556,0.364,-2.27
CG15705,1,-2.53,0.147,0.462
CG15705,2,-0.143,-0.0815,0.00237
pn (prune),1,-0.0859,-0.491,-7.61
pn (prune),2,1.28,0.497,0.852
pn (prune),3,-2.88,0.169,1.64
SMC6 (Structural maintenance of chromosomes 6),1,-0.278,-1.74,-1.09
SMC6 (Structural maintenance of chromosomes 6),2,0.0617,0.792,-0.166
mei-S332 (meiotic from via Salaria 332),1,-0.349,-1.19,-0.00761
Cyp9b1 (Cytochrome P450 9b1),1,0.804,-2.33,-0.707
Cyp9b1 (Cytochrome P450 9b1),2,1.51,-0.783,0.811
Acat2 (Acetyl-CoA acetyltransferase 2),1,-0.378,0.00519,-0.358
asf1 (anti-silencing factor 1),1,0.877,-1.21,2.29
asf1 (anti-silencing factor 1),2,1.58,-0.496,-1.72
CG14245,1,-4.08,0.372,1.24
CG14245,2,-0.33,0.522,-0.399
